Reference: PubChem BioAssay AID1259414 (Drosophila RNAi Screening Center, 2018)
Test: 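Genome-wide screen for host control of endosymbiont load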 (primary screen). Cells: Drosophila JW18 cells infected with Wolbachia. Reagents: long dsRNA against Drosophila genes, 0.25 µg dsRNA per well of a 384-well plate. Time to read-out: 5 days. Challenge: cells persistently infected with Wolbachia before knock-down; no added drug. Read-out: 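Imaged fluorescence in situ signal for Wolbachia 23S rRNA per DAPI-counted host cell, given as a robust z-score within each plate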. Reading the numbers: Wolbachia per cell robust z: higher = more Wolbachia per host cell than the plate typical. Rule for the call: 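Active if absolute robust z reaches 1.5 in two or more of three replicates, leaving out multi- or no-target dsRNAs, genes unexpressed in JW18 and A1 wells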.
The screen tested about 24,000 reagents; this is an unselected part of those that have a named target and a result. Over the whole deposit, about 1,210 (5%) got an active call. 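Inactive calls also include excluded dsRNAs with several or no targets, genes unexpressed in JW18, and well A1, regardless of score.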 Names joined by + are all predicted targets of the reagent. Reagent sequences are not shown.

Wolbachia per cell robust z, rep 1	Wolbachia per cell robust z, rep 2	Wolbachia per cell robust z, rep 3	call	gene knocked down	DRSC id
0.53	-0.371	-1.31	inactive	Adss	DRSC14162
0.479	0.395	-0.852	inactive	Adss	DRSC30079
0.159	0.173	0.699	inactive	ebi	DRSC00816
0.825	-0.0585	-0.0471	inactive	CG14210 + Pstk + Tim9b	DRSC19566
-0.00385	-2.46	-0.384	inactive	Mettl3	DRSC15921
-0.432	-0.915	0.532	inactive	Mettl3	DRSC27423
0.834	-0.493	-0.488	inactive	Nop56	DRSC14699
-2.82	0.713	-5	inactive	CR16735	DRSC15144
-0.0503	-0.572	0.439	inactive	CG14072	DRSC02375
-0.113	-0.00891	0.245	inactive	CG18249	DRSC15318
0.749	-0.0236	-2.56	inactive	Ance-5	DRSC04055
0.183	-0.739	0.0156	inactive	Ance-5	DRSC27189
-3.2	0.386	1.61	inactive	Rab9D + Rab9E + Rab9Db	DRSC17656
0.187	-0.0183	0.348	inactive	CG8369	DRSC16413
1.05	0.64	0.33	inactive	wapl	DRSC18851
1.88	-0.173	-0.53	inactive	wapl	DRSC27941
1.26	-3.85	0.515	inactive	Dpy-30L2	DRSC08205
0.0332	-0.0328	0.32	inactive	Dpy-30L2	DRSC25695
-0.931	0.196	1.26	inactive	CG14650	DRSC12236
-2.11	-0.0263	0.646	inactive	CG14650	DRSC23822
-0.39	0.729	-1	inactive	CG42819	DRSC02264
-2.94	-1.83	-2.6	active	CG2898	DRSC18238
1.05	-0.0749	1.31	inactive	CG18473	DRSC16381
-3.03	-0.121	-1.62	inactive	TpnC73F	DRSC11307
0.256	-6.67	-0.492	inactive	Eph	DRSC17164
-0.694	-1.76	-1.24	inactive	Eph	DRSC40799
-0.0369	0.597	-0.185	inactive	CG17097	DRSC02569
0.376	-0.475	-0.531	inactive	CG17097	DRSC24178
-1.88	-1.57	-0.666	inactive	CG4629	DRSC00659
0.284	1.55	0.756	inactive	CG4629	DRSC27952
-1.01	0.672	-0.409	inactive	CG13160	DRSC06284
0.306	1.35	0.729	inactive	CG4622 + CG11413	DRSC26158
0.846	0.719	-2.29	inactive	CG12848	DRSC04128
0.443	0.46	0.235	inactive	inv	DRSC07633
0.747	0.64	0.0726	inactive	inv	DRSC29580
-2.63	-0.616	-0.648	inactive	CG34289	DRSC38814
-0.259	0.327	0.0563	inactive	dy	DRSC20325
1.02	0.604	-0.548	inactive	dy	DRSC25539
1.54	0.828	1	inactive	TM9SF2	DRSC03197
-4.67	0.532	0.0953	inactive	Arp8	DRSC20059
0.644	1.29	1.17	inactive	Arp8	DRSC26432
-1.49	-0.937	-0.696	inactive	AGO3	DRSC21386
-0.529	-2.33	-0.0889	inactive	CNT1	DRSC06082
0.302	-0.0107	-0.0482	inactive	CNT1	DRSC29671

Just “Wolbachia per cell robust z, rep 2”, for 7 of the entries above:
inv [DRSC29580] = 0.64
CG34289 [DRSC38814] = -0.616
dy [DRSC20325] = 0.327
dy [DRSC25539] = 0.604
TM9SF2 [DRSC03197] = 0.828
Arp8 [DRSC20059] = 0.532
Arp8 [DRSC26432] = 1.29

The listing continues.
Wolbachia per cell robust z, rep 1	Wolbachia per cell robust z, rep 2	Wolbachia per cell robust z, rep 3	call	gene knocked down	DRSC id
1.19	-1.46	0.527	inactive	CG42741	DRSC04593
1.06	0.585	0.907	inactive	CG42741	DRSC22045
0.347	0.181	-0.501	inactive	CG42741	DRSC30003
0.363	1.24	-1.56	inactive	CG3038	DRSC18618
0.104	0.126	0.462	inactive	CG3038	DRSC40776
0.498	0.339	-1.46	inactive	Nil	DRSC15953
1.07	1.36	-7.48	inactive	Nil	DRSC23322
0.231	-0.509	-2.14	inactive	EloB	DRSC16663
0.495	-8.02	0.753	inactive	CG3036	DRSC00260
0.345	1.48	0.0195	inactive	CG3036	DRSC00562
-8.12	1.39	0.413	inactive	CG3036	DRSC24856
0.022	0.543	0.906	inactive	PolG1	DRSC03621
0.404	0.991	0.964	inactive	PolG1	DRSC29392
0.0645	-0.0958	0.384	inactive	PolG1	DRSC40792
0.48	1.2	0.636	inactive	exp	DRSC06313
-1.95	-1.26	-2.92	active	exp	DRSC25004
-0.218	0.0101	0.31	inactive	Teh2	DRSC08458
-2.56	-2.22	-1.67	inactive	Teh2	DRSC29037
2.04	2.28	2.57	active	RpL5	DRSC03801
-0.307	0.185	1.62	inactive	RpL5	DRSC29038
-0.0476	0.262	-0.269	inactive	Hf + OS9	DRSC03392
0.773	-4.24	-0.845	inactive	Oxp	DRSC06712
-0.123	0.807	0.257	inactive	Ogg1	DRSC17738
1.04	-1.48	0.857	inactive	CG14606	DRSC12550
-0.435	-0.755	0.737	inactive	CG8519	DRSC10985
-2.47	-0.503	1.33	inactive	CG8519	DRSC26203
-1.2	-1.5	-4.92	inactive	CG8665	DRSC03098
0.627	0.832	0.191	inactive	CG13699	DRSC10048
0.647	0.731	0.97	inactive	CG13699	DRSC26349
-2.46	-1.04	-2.28	inactive	lectin-22C	DRSC40599
0.585	-0.0566	0.0595	inactive	CG15602	DRSC19671
0.482	0.901	0.576	inactive	CG15602	DRSC30101
0.215	0.529	0.329	inactive	Qtzl	DRSC01221
-1.21	1.57	3.98	active	beta'COP	DRSC03492
1.98	3.24	3.43	active	beta'COP	DRSC26650
-0.408	-0.406	-0.169	inactive	Sfp84E	DRSC40605
-6.14	0.207	-0.594	inactive	CG10631	DRSC02081
-0.239	-0.517	0.555	inactive	tud	DRSC04719
1.51	2.11	0.632	inactive	CG33500	DRSC09115
0.377	0.469	0.428	inactive	Mur29B	DRSC01018
-0.742	-1.86	-1.61	inactive	Mur29B	DRSC02376
-0.297	-0.119	-0.235	inactive	CG34188	DRSC38869
-4.26	0.524	0.0369	inactive	Or13a	DRSC20265
